# According to US5235039A (Eli Lilly and Company, priority 1991, dated 1993):
# [ ]: non-standard residue; d: D form. The star is where a group is joined. Biotin = O=C1N[C@H]2[C@H](CS[C@H]2CCCCC(=O)*)N1
# Test: general procedure: Boc solid-phase peptide synthesis; PAM resin; DCC (biotin coupling); standard double-couple protocol
# Details: whole synthesis, scale 1.5 millimole
Substance,crude mass [g],isolated mass [g],isolated yield
Biotin-PQGIAG[dR]K-OH,1.79,1.27,87% of theory
Biotin-RRRPQQFFGLMGK-OH,2.24,0.669,29% of theory
Biotin-GSQNYPIVGK-OH,2.4,1.206,62% of theory
